These results are taken from PubChem BioAssay AID1950 (The Scripps Research Institute Molecular Screening Center, 2009).

Structures are written as SMILES. Only a part is listed here, and it is no random draw. Activity calls are given as the source filed them. Rule as the data show it: active = inhibition above about 28%; inactive = the rest.

The assay has as its system EBNA-1 (Epstein-Barr virus nuclear antigen 1), Human herpesvirus 4. As to the kind of experiment: EBNA-1 DNA-binding inhibitors, primary screen, biochemical, fluorescence polarization (AID 1950). The settings on record: at 14.8 µM, stronger effect = higher value. In general terms: Polarisation of emitted light reports the rotation of a fluorescent probe.
The term inhibition denotes the drop in the measured response relative to a control, in per cent. On to `CC(C)(C)C(=O)NC(Sc1ccncn1)C(Cl)(Cl)Cl` (stereo not drawn), for which the inhibition was inactive: 0.82%.

For the molecule `O=[N+]([O-])c1ncn(CCn2ncnc2[N+](=O)[O-])n1`, the inhibition was inactive: -1.34%.

As to `O=C(Nc1cc([As](=O)(O)O)ccc1O)c1ccccc1`, the inhibition was inactive: -12.9%.

With `CCN(N=Nc1nonc1N)c1nonc1N`, the inhibition was inactive: 5.81%.

For `O=[N+]([O-])c1cc([N+](=O)[O-])c(CCN2CCOCC2)c([N+](=O)[O-])c1`, the inhibition is inactive: -3.63%.

Regarding `CN(C(=O)Cc1ccc(Cl)c(Cl)c1)[C@H]1CCCC[C@@H]1N1CCCC1`, the inhibition was inactive: 0.08%.

Consider `Cc1ccc(NP(=O)(Oc2ccccc2F)Oc2ccccc2F)nc1`, for which the inhibition is inactive: -3.05%.

Consider `CCOP(=O)(Nc1ccccc1)OCC`, for which the inhibition was inactive: 6.2%.

Regarding `Cc1cc(SC(NC(=O)c2ccc(F)cc2)C(Cl)(Cl)Cl)ncn1` (stereo not drawn), the inhibition was inactive: 5.39%.

For `O=C(O)c1ccccc1[As](=O)(O)O`, the inhibition is inactive: -2.57%.

As to `CC(=O)Nc1ccc([As](=O)(O)O)cc1`, the inhibition is inactive: -0.52%.

As to `O=P(Nc1nc2ccc(Cl)cc2s1)(c1ccccc1)c1ccccc1`, the inhibition was inactive: -4.78%.

Consider `CC(C)CC(=O)NC(Sc1ccc(Cl)cc1)C(Cl)(Cl)Cl` (stereo not drawn), for which the inhibition was inactive: -8.42%.

Regarding `Nc1cc(N)c2nonc2c1[N+](=O)[O-]`, the inhibition was inactive: 3.63%.

Turning to `Cc1c2non([O-])c-2c(C)[n+](=O)[n+]1[O-]`, the inhibition was inactive: -6.82%.

On to `O=C(NC(Sc1ccncn1)C(Cl)(Cl)Cl)c1ccccc1` (stereo not drawn), for which the inhibition was inactive: -2.11%.

Take `Oc1ccccc1CNc1ccccn1`: the inhibition is inactive: 8.67%.

For `Cc1ccc(OP(=O)(Nc2nccs2)Oc2ccc(C)cc2)cc1`, the inhibition was inactive: -1.59%.

`COc1ccccc1OP(=O)(Nc1ccc(C)cn1)Oc1ccccc1OC`: the inhibition was inactive: -6.41%.

On to `Clc1ccc(Cl)c(NC2=NCC(CBr)S2)c1` (stereo not drawn), for which the inhibition was inactive: 0.4%.

Turning to `CN1CCCC(OC(=O)C(c2ccccc2)c2ccccc2)C1` (stereo not drawn), the inhibition is inactive: 7.03%.

On to `NC(=O)c1cc([N+](=O)[O-])cc([N+](=O)[O-])c1N`, for which the inhibition was inactive: -10.9%.

On to `Cc1ccc(N/C(=N/P(=O)(N2CCOCC2)N2CCOCC2)N2CCOCC2)cc1`, for which the inhibition was inactive: -7.98%.

With `CN(C(=O)Cc1ccc(Cl)c(Cl)c1)[C@H]1CCCC[C@H]1N1CCCC1`, the inhibition was inactive: -2.52%.

`CC(=O)Nc1ccc(Oc2c([N+](=O)[O-])cc([N+](=O)[O-])cc2[N+](=O)[O-])cc1`: the inhibition is inactive: -3.9%.

On to `CC(=O)Nc1ccc([As](=O)(O)O)c(O)c1`, for which the inhibition was inactive: -15.2%.

As to `CC(=O)c1ccc(N2CC2c2ccncc2)cc1` (stereo not drawn), the inhibition was inactive: 0.39%.

`C[C@@H]1C=CCP(=O)(Oc2ccccc2)O1` (stereo partly drawn): the inhibition was inactive: 8.18%.

`C[C@H]1OP(=O)(Oc2ccccc2)C[C@@H]2O[C@@H]21` (stereo partly drawn): the inhibition is inactive: -4.63%.

Consider `CC(C)(C)C(=O)NC(Sc1ccccc1)C(Cl)(Cl)Cl` (stereo not drawn), for which the inhibition is inactive: -7.45%.

For the molecule `CCOc1ccc(C2=NCC(CBr)S2)cc1` (stereo not drawn), the inhibition was inactive: 4.37%.

For the molecule `O=P1(Nc2nc3ccc(Cl)cc3s2)COc2ccccc2O1` (stereo not drawn), the inhibition is inactive: -1.44%.

For the molecule `CN(C)C(=O)Oc1noc2ccccc12`, the inhibition is inactive: -2.22%.

Consider `Cc1ccccc1OP(=O)(Nc1ccccn1)Oc1ccccc1C`, for which the inhibition was inactive: -1.91%.

Turning to `CC(=O)NC(SC(=S)N(CC(C)C)CC(C)C)C(Cl)(Cl)Cl` (stereo not drawn), the inhibition was inactive: -1.59%.

Take `Cc1ccc(OP(=O)(Nc2ccccn2)Oc2ccc(C)cc2)cc1`: the inhibition was inactive: 3.33%.

Take `COC(=O)c1cc2c(s1)N=C(c1ccccc1)N(C)P2(=O)N1CCOCC1` (stereo not drawn): the inhibition is inactive: -3.21%.

Regarding `CCC(=O)N1C2C3N(C(=O)CC)C1C1N(C(=O)CC)C(C(N1C(=O)CC)N3C(=O)CC)N2C(=O)CC`, the inhibition is inactive: 2.4%.

As to `O=C(OC1CN2CCC1CC2)c1ccccc1` (stereo not drawn), the inhibition was inactive: -23.6%.

As for `O=C(NC1CCS(=O)(=O)C1)NP(=S)(Oc1ccccc1)Oc1ccccc1` (stereo not drawn), the inhibition is inactive: 3.23%.

With `CCNC(=S)/N=C(\N)N[N+](=O)[O-]`, the inhibition was inactive: -1.1%.

For `Cc1ccc(NP(=O)(Oc2cccc(C)c2)Oc2cccc(C)c2)nc1`, the inhibition is inactive: -16.9%.

`CCOC(=O)NC(Sc1ccccc1)C(Cl)(Cl)Cl` (stereo not drawn): the inhibition is inactive: 0.44%.

Consider `c1ccc(-c2nn[nH]n2)c(-c2nn[nH]n2)c1`, for which the inhibition is inactive: -0.07%.

In the case of `Nc1ccc([As](=O)(O)c2ccc([N+](=O)[O-])cc2)cc1`, the inhibition was inactive: 5.99%.

In the case of `C(Cc1nn[nH]n1)Cc1nn[nH]n1`, the inhibition is inactive: 7.41%.

Turning to `O=C(OC1CN2CCC1CC2)c1cccc(Cl)c1` (stereo not drawn), the inhibition was inactive: 4.88%.

`CC(=O)NC(SC(=S)N(C)C)C(Cl)(Cl)Cl` (stereo not drawn): the inhibition is inactive: 14.4%.

For `O=[N+]([O-])c1ncn(CCn2cnc([N+](=O)[O-])n2)n1`, the inhibition is inactive: -1.96%.

Consider `O=[N+]([O-])c1ccc(O)c(/C=N/Nc2ccc([N+](=O)[O-])cc2[N+](=O)[O-])c1`, for which the inhibition was inactive: -11.4%.

In the case of `O=[As](O)(c1ccccc1)c1ccc(O)cc1`, the inhibition was inactive: 0.18%.

Consider `C[C@H]1OP(=O)(Oc2ccccc2)[C@H](O)[C@H](O)[C@H]1N=[N+]=[N-]` (stereo partly drawn), for which the inhibition is inactive: -7.39%.

Turning to `O=P(Nc1nc2ccccc2s1)(c1ccccc1)c1ccccc1`, the inhibition was inactive: 9.86%.

Turning to `CN(C)C1(CNC(=O)c2ccc(Cl)c(S(N)(=O)=O)c2)CCCCC1`, the inhibition is inactive: -16.1%.

On to `O=P(Nc1ccccn1)(c1ccc(Br)cc1)c1ccc(Br)cc1`, for which the inhibition is inactive: -3.67%.

`c1nnnn1CCn1cnnn1`: the inhibition was inactive: -10.5%.

Consider `O=P(Nc1nccs1)(c1ccccc1)c1ccccc1`, for which the inhibition was inactive: 4.73%.

In the case of `CC(C)C(=O)NC(Sc1ccccc1)C(Cl)(Cl)Cl` (stereo not drawn), the inhibition was inactive: -8.35%.
